The chains are these.
B1: BD56-1358 (protein)
chain 1: QVQLVQSGAEVKKPGASVKVSCKTSAYTFTGYFFHWVRQAPGQGLEWMGWIDPNSGGTNYAQKFQGRVTMTRDTSISTAYMELSRLRSDDTAVYYCALSFLEWLKPNYWGQGTLVTVSS
chain 2: DIQMTQSPSSLSASVGDRVTITCQASQDISNYLNWYQQKPGKAPKLLISDASNLETGVPSRFSGSGSGTDFTFTISSLQPEDIATYYCQQYDNLPFTFGPGTKVDIK
B2: BD56-1190 (protein)
chain 1: EVQLVESGGGFVQPGRSLRLSCAASGFTFDDYAMHWVRQAPGKGLEWVSGISWNSGSIGYGDSVKGRLTISRDNAKNSLYLQMNSLRAEDTALYYCARSRISMITVAGGAFDIWGQGTMVTVSS
chain 2: DIQMTQSPSSLSASVGDRVTITCQASQDISNYLSWYQQKPGKAPKLLIYDASNLERGVPSRFSGSGSGTDFTFTISSLQPEDIATYYCQQYDNLPPPFTFGPGTKIDIK
B3: BD56-1195 (protein)
chain 1: QVQLQESGPGLVKPSETLSLTCTVSGGSISTDYWSWIRQPPGKGLEWIGLIDDSGSTNYNPSLKSRVSISVDTSKNQFSLKLSSVTAADTAVYYCARKIPGQWDDRGYGMDVWGQGTTVTVSS
chain 2: SDELTQPPSVSVSPGQTARITCSGDALPQQYAYWYQQKPGQAPVMVIYKDSERPSGIPERFSGSSSGTTVTLTISGVQAEDEADYYCQSADNNGTPVVFGGGTKLTVL
B4: BD56-1352 (protein)
chain 1: EVQLVESGGGLIQPGGSLRLSCAASGFTVSSNYMSWVRQAPGKGLEWVSVIYSGGSTFYADSVKGRFTISRDNSENTLYLQMNSLRAEDTAVYYCARENLGEPNYGFDYWGQGTLVTVSS
chain 2: DIQMTQSPSSLSASVGDRVTITCQASQDINKYLNWYQQKPGKAPKLLIYDASNLETGVPSRFSGSGSGTDFTFTITSLQPEDIGTYYCQQYDNLPPWTFGQGTKVEIK
B5: BD56-235 (protein)
chain 1: EVQLLESGGGLVQPGGSLRLSCAASGFTFRSYVMSWVRQAPGKGLEWVSAISGSGGSTDYADSVKGRFTISRDNSKNTLYLQMNSLRAEDTAVYYCAKEDDDDYGALSFDSWGQGTLVTVSS
chain 2: QSALTQPASVSGSPGQSITISCTGSSSDVGSYILVSWYQQHPGKAPKLMIYEGSKRPSGISNRFSGSKSGNTASLTIYGLQAEDEADYYCCSFADSRVFGGGTKVTVL

Human monoclonal antibodies against the spike receptor-binding domain (heavy:light variable regions). IC50 against pseudoviruses bearing the spike of naturally observed variants; lower = stronger; >10 µg/ml means not reached at the top dose. No active / inactive call. The stated detection limit is 0.0005 µg/ml; values near or below 0.001 µg/ml lie at the floor of the assay.

In one test the target is SARS-CoV-2 Omicron BA.1 spike pseudovirus. The experiment in a line: pseudovirus neutralization IC50; higher = weaker neutralization. On the procedure: (§1)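 Single-round VSV luciferase pseudovirus mixed with antibody dilutions for 1 h and put on Huh-7 cells for about a day; IC50 from the dose curve.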
With B1, the “pseudovirus neutralization IC50” value was above 10 mg/L.
The same measure, in the same setting: to B2 belongs 3.12 mg/L; to B3, 0.00441 mg/L.
As for B4, the “pseudovirus neutralization IC50” value was 0.00115 mg/L.
Same read-out and setting: the value for B5 was 0.0353 mg/L.

For a further test, the target named is SARS-CoV-2 Omicron BA.2 spike pseudovirus. The test is described as above. On the procedure: as §1
B1: the “pseudovirus neutralization IC50” value was determined as 0.314 mg/L.
The same measure, in the same setting: to B2 belongs 0.0475 mg/L.
For B3, the “pseudovirus neutralization IC50” value amounted to 0.00262 mg/L.
Same read-out and setting: the value for B4 was 0.00077 mg/L; that for B5 was 0.0335 mg/L.

The target in another test is SARS-CoV-2 Omicron BA.2.75 spike pseudovirus. The description is as above. Here is the method:
as §1
B1: the “pseudovirus neutralization IC50” value was above 10 mg/L.
On to B2, for which the “pseudovirus neutralization IC50” value is above 10 mg/L.
Still for that read-out and setting: the value for B3 was 0.00137 mg/L.
Still for that read-out and setting: to B4 belongs above 10 mg/L.
Same read-out and setting: the value for B5 was 1.13 mg/L.

A further test has as its target SARS-CoV-2 Omicron BA.2.75.2 spike pseudovirus. Described as above. On the procedure: as §1
B1: the “pseudovirus neutralization IC50” value was above 10 mg/L.
Turning to B2, the “pseudovirus neutralization IC50” value is above 10 mg/L.
Same read-out and setting: the value for B3 was 0.00255 mg/L.
Still for that read-out and setting: the value for B4 was above 10 mg/L; that for B5 was 0.99 mg/L.

The target of another test is SARS-CoV-2 Omicron BA.5 spike pseudovirus. The description is as above. On the procedure:
as §1
As to B1, the “pseudovirus neutralization IC50” value was above 10 mg/L.
Still for that read-out and setting: to B2 belongs above 10 mg/L; to B3, 0.00299 mg/L; to B4, 0.124 mg/L.
On the same count and under the same terms, the value for B5 was above 10 mg/L.

A further test has as its target SARS-CoV-2 Omicron BM.1.1.1 spike pseudovirus. The description is as above. Here is the method: as §1
In the case of B1, the “pseudovirus neutralization IC50” value was above 10 mg/L.
With B2, the “pseudovirus neutralization IC50” value was above 10 mg/L.
Same read-out and setting: to B3 belongs 0.00289 mg/L; to B4, above 10 mg/L.
For the molecule B5, the “pseudovirus neutralization IC50” value is above 10 mg/L.

The next test addresses SARS-CoV-2 Omicron BQ.1.1 spike pseudovirus. The description is as above. On the procedure:
as §1
For the molecule B1, the “pseudovirus neutralization IC50” value is above 10 mg/L.
Same read-out and setting: the value for B2 was above 10 mg/L.
Consider B3, for which the “pseudovirus neutralization IC50” value was found to be 0.00694 mg/L.
On the same count and under the same terms, to B4 belongs above 10 mg/L.
Still for that read-out and setting: the value for B5 was above 10 mg/L.

Another test has as its target SARS-CoV-2 Omicron BR.2 spike pseudovirus. Described as above. On the procedure: as §1
For B1, the “pseudovirus neutralization IC50” value is above 10 mg/L.
On the same count and under the same terms, the value for B2 was above 10 mg/L; that for B3 was 0.00275 mg/L; that for B4 was above 10 mg/L.
The same measure, in the same setting: the value for B5 was above 10 mg/L.

For a further test, the target named is SARS-CoV-2 Omicron CA.1 spike pseudovirus. Described as above. Here is the method:
as §1
With B1, the “pseudovirus neutralization IC50” value is above 10 mg/L.
Still for that read-out and setting: to B2 belongs above 10 mg/L; to B3, 0.00278 mg/L.
Still for that read-out and setting: to B4 belongs above 10 mg/L; to B5, above 10 mg/L.

Another test concerns the target SARS-CoV-2 Omicron XBB spike pseudovirus. The test is described as above. On the procedure: as §1
In the case of B1, the “pseudovirus neutralization IC50” value was above 10 mg/L.
Same read-out and setting: to B2 belongs above 10 mg/L; to B3, above 10 mg/L.
Still for that read-out and setting: the value for B4 was above 10 mg/L; that for B5 was above 10 mg/L.

The next test addresses SARS-CoV-2 early D614G spike pseudovirus. The description is as above. Here is the method: as §1
Consider B1, for which the “pseudovirus neutralization IC50” value was above 10 mg/L.
The same measure, in the same setting: to B2 belongs above 10 mg/L; to B3, above 10 mg/L; to B4, above 10 mg/L.
For B5, the “pseudovirus neutralization IC50” value was above 10 mg/L.

The values above are taken from the supplement of paper PMC9931576.
